Marks after values point to notes of the source that are not given here.
Test system: E. coli O157:H7 on alfalfa seeds
Experiment: E. coli O157:H7 inactivation on alfalfa seeds
Conditions: for E. coli O157:H7 counts, 0 min of exposure / E. coli O157:H7 counts, 1 min of exposure / E. coli O157:H7 counts, 2 min of exposure / E. coli O157:H7 counts, 5 min of exposure / E. coli O157:H7 counts, 60 min of exposure / E. coli O157:H7 counts, 10 min of exposure / E. coli O157:H7 counts, 20 min of exposure / E. coli O157:H7 counts, 30 min of exposure: 21° C.

[Ca+2].[O-]Cl.[O-]Cl [20,000 ppm, Ca(OCl)2, pH 11.4, calcium hypochlorite]
E. coli O157:H7 population reduction (seeds dried 4 h, treatment for up to 60 min): greater than 6 log CFU/g | E. coli O157:H7 counts, 0 min of exposure (seeds dried for 4 h): +^b (+, Below the minimum detection level by direct plating (<1.7 log CFU/ml), but positive by enrichment culture.) | E. coli O157:H7 counts, 1 min of exposure (seeds dried for 4 h): + (+, Below the minimum detection level by direct plating (<1.7 log CFU/ml), but positive by enrichment culture.) | E. coli O157:H7 counts, 2 min of exposure (seeds dried for 4 h): −^c | E. coli O157:H7 counts, 5 min of exposure (seeds dried for 4 h): + (+, Below the minimum detection level by direct plating (<1.7 log CFU/ml), but positive by enrichment culture.) | E. coli O157:H7 counts, 60 min of exposure (seeds dried for 4 h): + (+, Below the minimum detection level by direct plating (<1.7 log CFU/ml), but positive by enrichment culture.) | E. coli O157:H7 counts, 0 min of exposure (seeds dried for 24 h): + (+, Below the minimum detection level by direct plating (<1.7 log CFU/ml), but positive by enrichment culture.) | E. coli O157:H7 counts, 1 min of exposure (seeds dried for 24 h): − | E. coli O157:H7 counts, 2 min of exposure (seeds dried for 24 h): − | E. coli O157:H7 counts, 5 min of exposure (seeds dried for 24 h): − | E. coli O157:H7 counts, 10 min of exposure (seeds dried for 24 h): − | E. coli O157:H7 counts, 20 min of exposure (seeds dried for 24 h): − | E. coli O157:H7 counts, 30 min of exposure (seeds dried for 24 h): − | E. coli O157:H7 counts, 60 min of exposure (seeds dried for 24 h): + (+, Below the minimum detection level by direct plating (<1.7 log CFU/ml), but positive by enrichment culture.) | E. coli O157:H7 populations after treatment (seeds dried for 24 h, 5 min): levels only detectable by enrichment culture | E. coli O157:H7 counts, 0 min of exposure (seeds dried for 48 h): + (+, Below the minimum detection level by direct plating (<1.7 log CFU/ml), but positive by enrichment culture.) | E. coli O157:H7 counts, 1 min of exposure (seeds dried for 48 h): − | E. coli O157:H7 counts, 2 min of exposure (seeds dried for 48 h): + (+, Below the minimum detection level by direct plating (<1.7 log CFU/ml), but positive by enrichment culture.) | E. coli O157:H7 counts, 5 min of exposure (seeds dried for 48 h): − | E. coli O157:H7 counts, 10 min of exposure (seeds dried for 48 h): − | E. coli O157:H7 counts, 20 min of exposure (seeds dried for 48 h): − | E. coli O157:H7 counts, 30 min of exposure (seeds dried for 48 h): − | E. coli O157:H7 counts, 60 min of exposure (seeds dried for 48 h): − | E. coli O157:H7 counts, 0 min of exposure (seeds dried for 72 h): + (+, Below the minimum detection level by direct plating (<1.7 log CFU/ml), but positive by enrichment culture.) | E. coli O157:H7 counts, 1 min of exposure (seeds dried for 72 h): + (+, Below the minimum detection level by direct plating (<1.7 log CFU/ml), but positive by enrichment culture.) | E. coli O157:H7 counts, 2 min of exposure (seeds dried for 72 h): + (+, Below the minimum detection level by direct plating (<1.7 log CFU/ml), but positive by enrichment culture.) | E. coli O157:H7 counts, 5 min of exposure (seeds dried for 72 h): − | E. coli O157:H7 counts, 10 min of exposure (seeds dried for 72 h): + (+, Below the minimum detection level by direct plating (<1.7 log CFU/ml), but positive by enrichment culture.) | E. coli O157:H7 counts, 20 min of exposure (seeds dried for 72 h): + (+, Below the minimum detection level by direct plating (<1.7 log CFU/ml), but positive by enrichment culture.) | E. coli O157:H7 counts, 30 min of exposure (seeds dried for 72 h): − | E. coli O157:H7 counts, 60 min of exposure (seeds dried for 72 h): −

From US8722123B2, “Antimicrobial composition and use as food treatment” (priority 2008, dated 2014)
